The target of this data set is T1, HilD (UniProt P0CL08).
T1 sequence (looked up, limits assumed): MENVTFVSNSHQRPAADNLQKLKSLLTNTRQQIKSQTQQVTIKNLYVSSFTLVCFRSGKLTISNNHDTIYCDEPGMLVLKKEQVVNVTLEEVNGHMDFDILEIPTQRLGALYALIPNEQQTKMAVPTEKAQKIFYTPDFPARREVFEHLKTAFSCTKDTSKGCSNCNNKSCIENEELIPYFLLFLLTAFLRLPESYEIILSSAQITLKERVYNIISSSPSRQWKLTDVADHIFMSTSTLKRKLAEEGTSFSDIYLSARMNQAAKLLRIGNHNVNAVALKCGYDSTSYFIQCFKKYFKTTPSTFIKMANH
Kind of data set: EMSA. The following applies: no myricanol; recombinant protein; label: 5' FAM on both primers; probe letters rebuilt from the primers and the genome.

For at least one entry, the source does not settle the construct or the ends of the probe. Protein sequences can lack the tags named with them.

“CTCTATTGCAATGAGGCCAAGTTAAATATGTAAATATTTAGATGCCCGGCGCTGACTCTCTCTGCACCAGGATATACGGCAGCGTCCATTCGATAATCACAGTTAGTTATAACAATATTATTACCAACATGTCAGTTATTTAAAGCACAGGCATAAGCTAAATAATCAAATGTTAAAAACATATAAACCCGAGCCCGTAGAATATGACATTAAGCTCATAATAAAAGCTCAACCTGACCGTTAGTACTAACAGCAGAATTACTGAAACAGTAGATTCTATCCTAACGACTTGTATTAGTTATTATAACTTTTCACCCTGTAAGAGAATACACTATTATCATGCCACATTTTAATCCTGTTCCTG (double strand) [hilA promoter]”: the binding result is reported as “binds”.
